Earlier results, collected in article PMC4885069.

Molecular target: SV2C LD4 (Rattus norvegicus) (UniProt Q9Z2I6)
Assay: SPR
Details: cited from earlier work

## BoNT/A HC (from UniProt P0DPI1)
  Kd: 0.55 µM
